Measurements: US4948807A, “Phenyl carbamates” (priority 1985, dated 1990)

Columns and labels:
[1] = type: in vivo, mice; conditions: dose which inhibits the brain enzyme by 50%; defaecation, lachrymation, fasciculations, tremor
[2] = majority of studies in laboratory animals; cited from earlier work
in vivo = conditions: mouse, decrease of acute toxicity (lethality) by the antidote atropine
Procedure: Mice were given one of at least three different doses of each compound, orally or subcutaneously, a minimum of 10 mice allotted to each dose. The number of animals which died at each dose within 3 hours was determined.
This experiment was repeated after the animals had been pretreated with atropine sulphate, which blocks both peripheral and central muscarinic receptors.
What is important is the safety of the drugs and the presence and severity of side effects that may occur at therapeutic doses. A commonly-used measure of drug safety is the therapeutic index--or LD50 /ED50 [formula]
It is assumed that the therapeutic effect of these anticholinesterase agents results from an elevation of brain cholinergic activity. This in turn, should be related to the degree of inhibition of acetylcholinesterase. For the purpose of the computation of the denominator of the therapeutic ratio, there is used the dose of drug that inhibits the activity of acetylcholinesterase by 50%. […] The numerator is the dose found to kill 50% of the animals within […] of a subcutaneous injection.

In the case of `CNC(=O)Oc1ccc2c(c1)[C@]1(C)CCN(C)[C@@H]1N2C` [Physostigmine, reference compound], the “undesirable side effects at ED50 dose” value [1] is given as “former 3 side effects are clearly evident”, the therapeutic ratio [2] is given as 3-5 and the selectivity ratio (in vivo) is given as 3.
